Compound potency records, mixed from different reports. Data source: NIAID ChemDB in PubChem.

Common to all: cytotoxicity tests; cells: L1210; read-out: CC50

Conditions beyond the fields shown may differ between rows. CCn is the concentration with n% toxicity to the cells. Two numbers with a dash give a range or band.

SMILES,result
Nc1cc(OC[C@H]2CC[C@@H](COCc3ccccc3)O2)ncn1,182 µM
N#Cc1cnn(CCCc2ccccc2)c1/N=c1\ssnc1Cl,3 µM
CO[C@H]1O[C@H](Cn2cc(Cl)c(=O)[nH]c2=O)[C@H](O)[C@H]1OCc1ccccc1F,>250 µM
Nc1cc(OC[C@H]2CC[C@@H](CO)O2)ncn1,>250 µM
CC[C@@H]1/C=C(\C)C[C@H](C)C[C@H](OC)[C@H]2O[C@@](O)(C(=O)C(=O)N3CCCC[C@H]3C(=O)O[C@H](/C(C)=C/[C@H]3CC[C@H](O)[C@H](OC)C3)[C@H](C)[C@@H](O)CC1=O)[C@H](C)C[C@@H]2OC,34 µg/mL
CN1CCc2c(sc(/N=c3\ssnc3Cl)c2C#N)C1,8 µM
CO/C=C(/C(=O)OC)[C@H](C)[C@@H](O)/C=C/c1ccccc1,50–100 µg/mL
Nc1cc(OCC2O[C@H](COCc3ccccc3)[C@@H](OCc3ccccc3)[C@H]2OCc2ccccc2)nc(N)n1,18 µM
CO[C@H]1O[C@H](Cn2c(C)c(C)c(=O)[nH]c2=O)[C@H](O)[C@H]1OCc1ccccc1F,104 µM
Nc1nc(N)nc(OC[C@H]2CC[C@@H](COc3nc(N)nc(N)n3)O2)n1,>250 µM
CO/C=C(/C(=O)OC)[C@H](C)C(=O)/C=C/c1ccccc1,10 µg/mL
c1ccc(COC[C@@H]2CC[C@H](COc3ncnc4nc[nH]c34)O2)cc1,29 µM
Nc1nc(N)c2nc(CNc3ccc(C(=O)NC(CCCCP(=O)(O)O)C(=O)O)cc3)cnc2n1,0.13 µM
Cc1ccccc1Cn1nnc(C#N)c1/N=c1\ssnc1Cl,7 µM
CO[C@H]1O[C@H](Cn2cc(I)c(=O)[nH]c2=O)[C@H](O)[C@H]1OCc1ccccc1F,175 µM
N#Cc1cnn(CCc2ccccc2)c1/N=c1\ssnc1Cl,5 µM
Nc1nc(OC[C@H]2CC[C@@H](CO)O2)c2[nH]cnc2n1,≥250 µM
Nc1nc(N)c2nc(CNc3ccc(C(=O)NC(CP(=O)(O)O)C(=O)O)cc3)cnc2n1,0.25 µM
N#Cc1ncn(CCc2ccc(Cl)cc2Cl)c1/N=c1\ssnc1Cl,5 µM

For reference, 2 entries again:

CC[C@@H]1/C=C(\C)C[C@H](C)C[C@H](OC)[C@H]2O[C@@](O)(C(=O)C(=O)N3CCCC[C@H]3C(=O)O[C@H](/C(C)=C/[C@H]3CC[C@H](O)[C@H](OC)C3)[C@H](C)[C@@H](O)CC1=O)[C@H](C)C[C@@H]2OC ; result: 34 µg/mL
CO[C@H]1O[C@H](Cn2c(C)c(C)c(=O)[nH]c2=O)[C@H](O)[C@H]1OCc1ccccc1F ; result: 104 µM